{"source": "patent US20040170653A1", "about": "“Tumour peptide antigen produced from human mdm2 proto-oncogene” (priority 2001, published 2004)", "origin": "cited, not measured here", "system": "A2K^b- and CD8×A2K^b transgenic mice", "details": "positive control (Theobald et al., 1995); cited from earlier work"}
{"substance": "Flu M1 58-66: peptide 58-66 of the A/PR/8/34 influenza virus matrix protein M1, positive control [reference compound]", "values": [{"measurement": "induction of A2.1-restricted CTL", "value": "already known"}]}
